{"source": "PubChem BioAssay AID504761 | Drosophila RNAi Screening Center – 2011", "assay": "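Genome-wide fly cell screen for genes dengue virus requires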 (primary screen)", "cell system": "D.Mel-2 cells from Drosophila", "knock-down reagent": "long dsRNA against Drosophila genes", "conditions": "infection with dengue virus type 2; dose and infection time not stated", "measured": "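Cells stained for dengue envelope protein and imaged; percent of infected cells per well on duplicate plates, ranked by infection, with stained nuclei counted for cell number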", "reading the numbers": "infection score: higher = more virus-infected cells; cell count: higher = more cells in the well", "active means": "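Very low infection ranking in both replicate wells (chance probability at most 0.065), then a retest showing infection dropped 1.5-fold or more at p below 0.05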", "calls": "active = confirmed: knock-down lowers infection; inactive = not picked or not confirmed", "note": "The screen tested about 22,000 reagents; shown is a random part of those that have a named target and a result. Of all reagents, 116 (0.52%) were called active. 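Calls depend on retest data that are not deposited; infection was ranked per plate without normalising between plates; the unit of the infection score is not given.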 The raw values are shown without normalisation. Further read-outs or replicates are left out here. The record does not give: the amount of reagent, the time to read-out."}
{"predicted target":"CG13531","dsRNA":"DRSC04173","infection score, replicate 1":10.6,"cell count, replicate 1":6373,"activity call":"inactive"}
{"predicted target":"CR11235","dsRNA":"DRSC20480","infection score, replicate 1":12.3,"cell count, replicate 1":5960,"activity call":"inactive"}
{"predicted target":"CR11235","dsRNA":"DRSC28870","infection score, replicate 1":2.33,"cell count, replicate 1":473,"activity call":"inactive"}
{"predicted target":"ND-39","dsRNA":"DRSC11791","infection score, replicate 1":13.2,"cell count, replicate 1":4928,"activity call":"inactive"}
{"predicted target":"ND-39","dsRNA":"DRSC28392","infection score, replicate 1":3.34,"cell count, replicate 1":479,"activity call":"inactive"}
{"predicted target":"Tsp47F","dsRNA":"DRSC07325","infection score, replicate 1":6.12,"cell count, replicate 1":6188,"activity call":"inactive"}
{"predicted target":"CG17440","dsRNA":"DRSC18126","infection score, replicate 1":21.4,"cell count, replicate 1":4994,"activity call":"inactive"}
{"predicted target":"CG14401","dsRNA":"DRSC02385","infection score, replicate 1":1.44,"cell count, replicate 1":6385,"activity call":"inactive"}
{"predicted target":"CG14401","dsRNA":"DRSC21710","infection score, replicate 1":3.99,"cell count, replicate 1":6785,"activity call":"inactive"}
{"predicted target":"CG14401","dsRNA":"DRSC24098","infection score, replicate 1":2.71,"cell count, replicate 1":6315,"activity call":"inactive"}
{"predicted target":"CG12360 (retired record)","dsRNA":"DRSC14505","infection score, replicate 1":2.42,"cell count, replicate 1":5535,"activity call":"inactive"}
{"predicted target":"frj","dsRNA":"DRSC03250","infection score, replicate 1":2.68,"cell count, replicate 1":5966,"activity call":"inactive"}
{"predicted target":"Bet1","dsRNA":"DRSC10088","infection score, replicate 1":2.07,"cell count, replicate 1":6583,"activity call":"inactive"}
{"predicted target":"CG18599","dsRNA":"DRSC23121","infection score, replicate 1":2.17,"cell count, replicate 1":6345,"activity call":"inactive"}
{"predicted target":"CG18599","dsRNA":"DRSC25823","infection score, replicate 1":18.7,"cell count, replicate 1":5152,"activity call":"inactive"}
{"predicted target":"Apoltp","dsRNA":"DRSC02508","infection score, replicate 1":10,"cell count, replicate 1":6170,"activity call":"inactive"}
{"predicted target":"Sytalpha","dsRNA":"DRSC02869","infection score, replicate 1":7.48,"cell count, replicate 1":6374,"activity call":"inactive"}
{"predicted target":"Rab7","dsRNA":"DRSC16810","infection score, replicate 1":28.9,"cell count, replicate 1":4749,"activity call":"inactive"}
{"predicted target":"CG32333","dsRNA":"DRSC08627","infection score, replicate 1":5.53,"cell count, replicate 1":6983,"activity call":"inactive"}
{"predicted target":"CG32333","dsRNA":"DRSC08629","infection score, replicate 1":1.83,"cell count, replicate 1":5738,"activity call":"inactive"}
{"predicted target":"CG12123","dsRNA":"DRSC17818","infection score, replicate 1":3.3,"cell count, replicate 1":6662,"activity call":"inactive"}
{"predicted target":"Burs","dsRNA":"DRSC14595","infection score, replicate 1":2.98,"cell count, replicate 1":7083,"activity call":"inactive"}
{"predicted target":"Rsph3","dsRNA":"DRSC09696","infection score, replicate 1":14.4,"cell count, replicate 1":5851,"activity call":"inactive"}
{"predicted target":"Rsph3","dsRNA":"DRSC10211","infection score, replicate 1":5.2,"cell count, replicate 1":5671,"activity call":"inactive"}
{"predicted target":"Rsph3","dsRNA":"DRSC26917","infection score, replicate 1":26.5,"cell count, replicate 1":6462,"activity call":"inactive"}
{"predicted target":"nmdyn-D7","dsRNA":"DRSC17016","infection score, replicate 1":1.33,"cell count, replicate 1":6242,"activity call":"inactive"}
{"predicted target":"Gr8a","dsRNA":"DRSC18043","infection score, replicate 1":3.52,"cell count, replicate 1":6454,"activity call":"inactive"}

Ordered by “infection score, replicate 1” (ascending): some entries from above
{"predicted target":"CR11235","dsRNA":"DRSC28870","infection score, replicate 1":2.33,"cell count, replicate 1":473,"activity call":"inactive"}
{"predicted target":"CG13531","dsRNA":"DRSC04173","infection score, replicate 1":10.6,"cell count, replicate 1":6373,"activity call":"inactive"}
{"predicted target":"CR11235","dsRNA":"DRSC20480","infection score, replicate 1":12.3,"cell count, replicate 1":5960,"activity call":"inactive"}
{"predicted target":"ND-39","dsRNA":"DRSC11791","infection score, replicate 1":13.2,"cell count, replicate 1":4928,"activity call":"inactive"}
